This note sets out measurements from PubChem BioAssay AID720584 (National Center for Advancing Translational Sciences (NCATS), 2013).

The entries are a selection whose mix differs from that of the whole data set. Inconclusive results are not listed. Active and inactive are the calls of the source. Calls follow the shape of the dose curve; as a rule, active = well fitted inhibition curve with a large enough effect; inconclusive = small, poorly fitted or top-dose-only effect; inactive = flat fitted curve, though single readings scatter.

This assay relates to Trypanosoma brucei pyruvate kinase (TbPYK). The assay is described as follows: qHTS of Trypanosoma Brucei Inhibitors: Orthogonal Assay for Cherry-picked Compounds. Also: nearly all actives have a fitted effect of over 75% in size. Conditions: recombinant TbPYK, ADP-Glo luminescence, 60 min. The text has this: Members of the Trypanosomatidae family of parasitic protozoans cause a spectrum of diseases throughout the tropical and subtropical world. Sleeping sickness, caused by two subspecies of Trypanosoma brucei, is endemic to areas of sub-Saharan Africa, while Chagas' disease, a manifestation of Trypanosoma cruzi infection, is prevalent throughout Central and South America. In addition, many species of Leishmania are responsible for a range of cutaneous and visceral diseases, causing ulcers, destructive lesions and kalaazar, a lethal infection of the viscera. These diseases cause severe public health and economic burdens on populations that are often already caught in a tragic cycle of poverty, poor nutrition and disease. […] While the primary qHTS provides a luminescence-based detection of TbPyK by measuring ATP production, the orthogonal assay will measure the amount of ADP substrate remaining. […]
Briefly, 2 uL of substrate/TbPYK buffer (all columns but column 4) are dispensed into Greiner white solid-bottom 1536-well assay plates. […] ADP-Glo reagent II is then added (5 uL), followed by a 10 minute room temperature incubation, before being transferred to a ViewLux high-throughput CCD imager (PerkinElmer), wherein single end-point measurements of luminescence are acquired using a clear filter. […]
A general note: qHTS replaces the single test concentration by a dilution series.
Potency is read from the fitted curve at half-maximal effect.

For the compound `Cc1cc(SC(NC(=O)c2ccccc2)C(Cl)(Cl)Cl)nc(C(C)C)n1` (stereo unspecified), the Potency is active: 15.8 µM.
